The assay concerns V. cholerae. Nature of the assay: Cholera toxin production by V. cholerae.

The record followed here is patent US20050215772A1, “Furanone derivatives and methods of making same” (priority 2002, published 2005).

The structures appear in SMILES notation.

In the case of `O=C1C=C(Br)/C(=C/Nc2ccccc2)O1`, the “reduction in cholera toxin production” value is given as 40% reduction in cholera toxin production by V. cholerae.
`CCCC(Br)C1=CC(=C(Br)Br)N(c2ccccc2)C1=O` (centres unmarked): the “reduction in cholera toxin production” value is listed as 40% reduction in cholera toxin production by V. cholerae.
